Values of other authors in article PMC11881559 (Antimicrobial Agents and Chemotherapy, 2025).

System: Mpro
Conditions: compared with nirmatrelvir; cited from earlier work

**Q.** Which “effect of mutants E166A/L167F and L50F/E166V on inhibition” value does the source give for O=C(NC1CCCC1)C(=O)[C@H](C[C@@H]1CCNC1=O)NC(=O)[C@@H]1[C@H]2CCC[C@H]2CN1C(=O)[C@@H](NC(=O)C(F)(F)F)C1CCCCC1 [RAY1216, leritrelvir] here?
**A.** weaker effect
